Pooled drug test results. Numbers come from NIAID ChemDB, via PubChem.

Common to all: whole-cell or culture tests; agent: Mycobacterium tuberculosis

Inhibition is in % at the dose shown (toxicity tests: loss of growth or viability). An empty or dashed field is not shown. ECn is the concentration giving n% inhibition of infection, replication or growth. Rows are shuffled and stem from different studies. MIC50, MIC90 and the like: level of inhibition, or share of isolates inhibited. MIC bound: limit read from a one-dose screen.

smiles,strain,read by,read-out,mutations,tested at,conditions,value
CC(=O)N[C@@H]1[C@H](O[C@H]2[C@H](O[C@H]3[C@H](O)[C@@H](O)[C@H](N=C(N)N)[C@@H](O)[C@@H]3N=C(N)N)O[C@@H](C)[C@]2(O)C=O)O[C@@H](CO)[C@H](O)[C@H]1O,666,,MIC,,,,1.56 µg/mL
CN[C@@H]1[C@H](O[C@H]2[C@H](O[C@H]3[C@H](O)[C@@H](O)[C@H](N=C(N)N)[C@@H](O)[C@@H]3N=C(N)N)O[C@@H](C)[C@]2(O)C=O)O[C@@H](CO)[C@H](O)[C@H]1O,9449/2007,broth dilution / visual reading,MIC,Streptomycin isoniazid rifampicin resistant,,,>32 µM
COc1ccc(-c2nc(N)nc(N)n2)cc1OCc1cccc(Cl)c1,H37Rv,resazurin,MIC,,,,18.45 µM
O=C(/C=C/c1ccccc1)n1c(-c2ccc(O)cc2)nc2ccccc21,H37Rv,resazurin / visual reading,MIC100,,,,12.5 µg/mL
CC(C)c1ccc(NC(=O)CCC(=O)Nc2ccc(C(C)C)cc2)cc1,,,MIC,,,,>1000 µM
CC(Oc1ccc(-c2nc(N)nc(N)n2)cc1)c1ccc(Cl)cc1,H37Rv,resazurin,MIC,,,,8.57 µM
O=C(CCC(=O)Nc1ccc(F)cc1)Nc1ccc(F)cc1,,,MIC,,,,250 µM
CCOc1c(N=Nc2ccccc2Cl)c(-c2ccccc2)nn1C(=S)S,H37Rv,BACTEC,inhibition,,12.5 µg/mL,,5%
Nc1nc(N)nc(-c2ccc(OC(c3ccccc3)c3ccccc3)cc2)n1,H37Rv,resazurin,MIC,,,,18.87 µM
O=C(O)c1ccc(Nc2nc3nn(Cc4ccccc4)cc3c(=O)s2)cc1,H37Rv,BACTEC,MIC bound,,,,>12.5 µg/mL
CC[C@H]1OC(=O)[C@H](C)[C@@H](O[C@H]2C[C@@](C)(OC)[C@@H](O)[C@H](C)O2)[C@H](C)[C@@H](O[C@@H]2O[C@H](C)C[C@H](N(C)C)[C@H]2O)[C@](C)(OC)C[C@@H](C)C(=O)[C@H](C)[C@@H](O)[C@]1(C)O,Isolate 2225,,MIC,,,,>4 µg/mL
COc1ccc(COc2ccc(-c3nc(N)nc(N)n3)cc2OC)cc1,H37Rv,resazurin,MIC,,,,3.91 µM
O=C(Nc1ccc(Cl)cc1)c1ccc(Cl)cc1OS(=O)(=O)c1ccccc1,H37Rv,,MIC,,,21 d,8 µM
CCCCC[C@H]1CCCCCCCCCC(=O)O[C@H]2[C@H](O)[C@@H](CO)OC(O[C@H]3[C@H](O1)O[C@H](C)C(O)(O)[C@@H]3O)[C@@H]2OC1O[C@@H](C)[C@H](OC(=O)C(C)CC)[C@@H](OC2O[C@@H](C)[C@H](O)[C@@H](O)[C@H]2O)[C@H]1OC(=O)C(C)CC,,,MIC,,,,16 µg/mL
Cc1nc2ccc([N+](=O)[O-])cc2n1C(=O)/C=C/c1ccccc1,H37Rv,resazurin / visual reading,MIC100,,,,25 µg/mL
CC1COc2c(N3CCN(C)CC3)c(F)cc3c(=O)c(C(=O)O)cn1c23,136570,resazurin,MIC,Streptomycin-resistant,,,0.14 µM
O=C1OC2(CC1n1cnc3ccccc3c1=O)C(=O)Nc1ccccc12,H37Rv,BACTEC,MIC,,,,≥12.5 µg/mL
O=C(Nc1cccc(C(F)(F)F)c1)c1ccc(Cl)cc1OS(=O)(=O)c1ccccc1,H37Rv,,MIC,,,14 d,125 µM
CN(C)C1C(=O)C(C(N)=O)=C(O)C2(O)C(=O)C3=C(O)c4c(O)cccc4C(C)(O)C3CC12,H37Rv,BACTEC,inhibition,,12.5 µg/mL,,54%
Cc1c2c3c(c4ocnc14)[C@@H](C)CC[C@@H]3[C@@H](C)[C@@H]2/C=C/C(C)(C)O,H37Rv,,MIC,,,,61 µg/mL
CC(=O)O[C@@H]1OC=C2CC[C@H]3[C@]4(C)CC[C@H]5C(C)(C)CCC[C@]5(C)[C@H]4C[C@@H](O)[C@]3(C)[C@H]21,H37Ra,,MIC,,,,3 µM
COC(=O)[C@@H]1[C@H](O)[C@H](C)C(O)[C@H](C)/C=C\C=C(/C)C(=O)Nc2c(C)c(OC(C)=O)c3c(c2O)C(=O)C(C)=C2OCOC(=C23)/C(C)=C/[C@@](C)(O)[C@H](O)[C@@H](C)[C@H]1OC(C)=O,H37Rv,,MIC,,,,6.3 µg/mL
Cc1ccc(-c2noc(C3=CC4(CCN(CC5CCCO5)CC4)c4ccccc43)n2)cn1,TB333,turbidity,MIC,Spiroindene-resistant,,,12.5 µM
NNC(=O)c1ccncc1,H37Rv,,MIC,,,,2.51 µM
COc1ccc(/C=C2/NC(=S)NC2=O)c(OC)c1,H37Rv,,inhibition,,6.25 µg/mL,,88%
CO[C@H]1/C=C/O[C@@]2(C)Oc3c(C)c(O)c4c(O)c(c(/C=N/N5CCN(C6CCCC6)CC5)c(O)c4c3C2=O)NC(=O)/C(C)=C\C=C\[C@H](C)[C@H](O)[C@@H](C)[C@@H](O)[C@@H](C)[C@H](O)[C@@H]1C,Atencio,,MBC,,,,1 µg/mL
COc1ccc(COc2ccc(-c3nc(N)nc(N)n3)cc2)cc1,H37Rv,resazurin,MIC,,,,3.37 µM
O=C1C2=C(c3ccccc31)C(c1cccc(Cl)c1)NC(=S)N2,H37Rv,BACTEC,inhibition,,12.5 µg/mL,,81%
O=C(Nc1ccc(F)cc1)c1ccc(Cl)cc1OS(=O)(=O)c1ccccc1,H37Rv,,MIC,,,21 d,16 µM
CCCCCCCCCCC1SCC(=O)N1c1nncs1,H37Rv,BACTEC,MIC bound,,,,>12.5 µg/mL
O=C(CCC(=O)Nc1ccc(Cl)c(Cl)c1)Nc1ccc(Cl)c(Cl)c1,,,MIC,,,,250 µM
O=C1NC(=S)N/C1=C/c1ccc(-c2ccccc2)cc1,H37Rv,,EC50,,,,<6.25 µg/mL
C#CCN(Cc1ccc2nc(N)nc(N)c2c1Cl)c1ccc(C(=O)N[C@@H](CCC(=O)O)C(=O)O)cc1,ATCC 2724,resazurin,EC50,,,,>99 µM
NCC[C@H](O)C(=O)N[C@@H]1C[C@H](N)[C@@H](O[C@H]2O[C@H](CN)[C@@H](O)[C@H](O)[C@H]2O)[C@H](O)[C@H]1O[C@H]1O[C@H](CO)[C@@H](O)[C@H](N)[C@H]1O,Isolate CKN64-20 (rrs A1401G mutation),,MIC,,,,>64 µg/mL
Nc1ncc[nH]c1=O,H37Rv,BACTEC,inhibition,,12.5 µg/mL,,-17%
O=c1c2c(oc3cccc(O)c13)CCC2O,H37Rv,resazurin,MIC,,,,100.9 µM
O=C(Nc1ccc(C(F)(F)F)cc1)c1cc(Cl)ccc1OS(=O)(=O)c1ccccc1,H37Rv,,MIC,,,21 d,1 µM
C1=C(c2nc(-c3ccccc3)no2)c2ccccc2C12CCN(CC1CC1)CC2,ss18b,resazurin,EC80,,,,50 µM
Cc1ccc(NC(=O)CCC(=O)Nc2ccc(C)c(C)c2)cc1C,,,MIC,,,,500 µM
CC(C)(C)OC(=O)CCCCC(NC(=O)c1ccc(NCc2ccc3nc(N)nc(N)c3c2Cl)cc1)C(=O)O,ATCC 2724,resazurin,EC50,,,,>99 µM
COc1ccc(-c2noc(C3=CC4(CCN(CCO)CC4)c4ccccc43)n2)cc1,H37Rv,resazurin,MIC,,,,12 µM
CN[C@@H]1[C@H](O[C@H]2[C@H](O[C@H]3[C@H](O)[C@@H](O)[C@H](N=C(N)N)[C@@H](O)[C@@H]3N=C(N)N)O[C@@H](C)[C@]2(O)C=O)O[C@@H](CO)[C@H](O)[C@H]1O,666,,MIC,,,,0.2 µg/mL
O=[N+]([O-])c1ccc(CO)c(I)c1,H37Rv,BACTEC,inhibition,,12.5 µg/mL,,0%
CC(=O)Nc1ccc(/C=N/NC(N)=S)cc1F,Rifampicin-resistant,,MBC,,,,>62.5 µg/mL
CC(=O)C(C(c1ccccc1)N1CCCc2ccccc21)N1CCOCC1,H37Rv,BACTEC,MIC bound,,,,>12.5 µg/mL
CC(C)=CCC[C@@H](C)c1ccc(C)c(O)c1,,,MIC,,,,16 µg/mL
CC(Oc1ccc(-c2nc(N)nc(N)n2)cc1)c1ccc(Br)cc1,H37Rv,resazurin,MIC,,,,56.47 µM
COc1cnc2ccc(=O)n(CCN3CCC(NCc4cc(Cl)c(Cl)cn4)CC3)c2c1,Erdman,resazurin,MIC,,,,0.04 µg/mL
CCCCC[C@H]1CCCCCCCCCC(=O)O[C@H]2[C@H](O)[C@@H](CO)OC(O[C@H]3[C@H](O1)O[C@H](C)[C@H](O)[C@@H]3O)[C@@H]2OC1O[C@@H](C)[C@H](OC(=O)C(C)CC)[C@@H](OC2O[C@@H](C)[C@H](O)[C@@H](O)[C@H]2O)[C@H]1OC(=O)C(C)CC,,,MIC,,,,16 µg/mL
O=C1NC(=O)/C(=C/c2cccc(OCc3ccc(Cl)cc3)c2)N1,H37Rv,,EC50,,,,<6.25 µg/mL
Cc1cc(=O)oc2c1ccc1occc(=O)c12,H37Rv,BACTEC,MIC bound,,,,>12.5 µg/mL
COc1cc(-c2nc(N)nc(N)n2)ccc1OCc1ccc(F)cc1,H37Rv,resazurin,MIC,,,,3.39 µM
O=C1OC(=O)C2C3(CC3)CC23CC13,H37Rv,BACTEC,MIC,,,,≥12.5 µg/mL
O=C(CCC(=O)Nc1ccccc1)Nc1ccccc1,,,MIC,,,,500 µM
Nc1nc(N)nc(-c2ccc(OCc3ccccc3Cl)cc2)n1,H37Rv,resazurin,MIC,,,,1.57 µM
COc1ccc(-c2noc(C3=CC4(CCN(CC5CCCO5)CC4)c4ccccc43)n2)cc1,H37Rv,colony count / visual reading,MBC,,,,0.8 µM
O=C(Nc1ccc(F)cc1)c1cc(Cl)ccc1OS(=O)(=O)c1ccccc1,H37Rv,,MIC,,,21 d,8 µM
CC1C(=O)OCN1C(=O)OCc1ccccc1,H37Rv,BACTEC,inhibition,,12.5 µg/mL,,-4%
C/C(=C\CC[C@H](C)[C@@H]1CC[C@]2(C)C3=CCC4C(C)(C)C(=O)CC[C@]4(C)C3CC[C@@]12C)C(=O)O,,,MIC,,,,64 µg/mL
CN1[B]N(C)[B]N(C)[B]1,H37Rv,BACTEC,MIC,,,,≥128 µg/mL
C=CCOc1cccc(/C=C2/NC(=S)NC2=O)c1,H37Rv,,inhibition,,6.25 µg/mL,,93%
CO[C@H]1/C=C/O[C@@]2(C)Oc3c(C)c(OC(C)=O)c4c(c3C2=O)C(=O)C=C(NC(=O)/C(C)=C\C=C\[C@H](C)[C@H](O)[C@@H](C)[C@@H](O)[C@@H](C)[C@H](OC(C)=O)[C@@H]1C)C4=O,EMB-R,,MIC,,,,0.03 µg/mL
O=C(Nc1ccc(Br)cc1)c1ccc(Br)cc1OS(=O)(=O)c1ccccc1,H37Rv,,MIC,,,21 d,8 µM
COc1ccc(/C(CC2(O)C(=O)Nc3c(C)cc(Cl)cc32)=N/NC(=O)C(=O)NN)cc1,H37Rv,BACTEC,MIC bound,,,,>12.5 µg/mL
C1=C(c2nc(-c3cccnc3)no2)c2ccccc2C12CCN(CC1CCCO1)CC2,H37Rv,resazurin,MIC,,,,3.1 µM
CC(=O)Oc1ccc(/C=C/c2cc(O)cc(O)c2)cc1,,,MIC,,,,32 µg/mL
O=C(CC1Sc2ccccc2NC1=O)NNc1ccc(Cl)c(Cl)c1,H37Rv,BACTEC,inhibition,,12.5 µg/mL,,16%
O=C(/C=C/c1ccccc1)n1c(-c2ccccc2[N+](=O)[O-])nc2ccccc21,H37Rv,resazurin / visual reading,MIC100,,,,12.5 µg/mL
O=C(c1ccccc1)c1nn2cc(-c3ccccc3)c(-c3ccccc3)c(-c3ccccc3)c2c1C(=O)c1ccccc1,H37Rv,resazurin,inhibition,,6.25 µg/mL,,93%
COc1ccc(-c2nc(N)nc(N)n2)cc1OCc1ccc(F)cc1,H37Rv,resazurin,MIC,,,,10.25 µM
Cn1c(-c2ccc(-c3cc(-c4cccs4)c(-c4cccs4)n3C)cc2)cc(-c2cccs2)c1-c1cccs1,H37Rv,BACTEC,MIC bound,,,,>6.25 µg/mL
Cc1cccc(/C=C2/NC(=S)NC2=O)c1,H37Rv,,inhibition,,6.25 µg/mL,,88%
CNc1nc2cc(C)c(C)cc2n1[C@@H]1O[C@@H](CO)[C@@H](O)[C@@H]1O,H37Rv,BACTEC,inhibition,,0.5 µM,,0%
COc1cc(-c2nn3c(C(F)(F)F)nnc3s2)cc(OC)c1OC,18b,resazurin,MIC,,,,16 µg/mL